Record: PubChem BioAssay AID624099 (ICCB-Longwood, 2012)
Purpose: 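Human genes that papillomavirus E2 requires to repress the HPV18 LCR promoter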 (primary screen). Cell system: human C33A cervical carcinoma cells (HPV-negative) stably expressing BPV1 E2 and an HPV18 LCR luciferase reporter. Reagents: siRNA pool against human genes, 40 nM. Timing: 72 h. Measured: 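Per-well luciferase luminescence, z-scored on each plate against the plate mean and SD with control wells left out, then averaged across three replicate plates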. Scale: mean z-score and z-score: higher = stronger reporter signal, weaker E2 silencing. Rule for the call: 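Mean z ≥ 2 together with z ≥ 2 in two or more of the three replicates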.
This is one part, drawn at random, of about 21,000 reagents tested. Of all reagents, 497 (2.4%) are marked active. 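Higher z means weaker E2 silencing; only reporter increases were scored, and knock-downs that hurt cell survival may mask genuine repressor factors.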 Entries without a mark were called inactive.

TMA7 (GeneID 51372) — mean z-score = 2.3 (active); z-score, replicate A = 2.95; z-score, replicate B = 1.84; z-score, replicate C = 2.12
GYPC (GeneID 2995) — mean z-score = 0.29; z-score, replicate A = 0.22; z-score, replicate B = 0.22; z-score, replicate C = 0.45
FLJ39095 (GeneID 400812) — mean z-score = -0.23; z-score, replicate A = -0.27; z-score, replicate B = -0.31; z-score, replicate C = -0.12
ZNF430 (GeneID 80264) — mean z-score = -0.21; z-score, replicate A = -0.08; z-score, replicate B = -0.1; z-score, replicate C = -0.45
PI16 (GeneID 221476) — mean z-score = -0.71; z-score, replicate A = -0.85; z-score, replicate B = -0.57; z-score, replicate C = -0.72
GRPEL2 (GeneID 134266) — mean z-score = -0.23; z-score, replicate A = -0.08; z-score, replicate B = -0.46; z-score, replicate C = -0.16
LOC400782 (retired record) (GeneID 400782) — mean z-score = 1.09; z-score, replicate A = 1.12; z-score, replicate B = 1.23; z-score, replicate C = 0.91
WFDC8 (GeneID 90199) — mean z-score = -0.22; z-score, replicate A = 0.22; z-score, replicate B = -0.31; z-score, replicate C = -0.57
RPL21P131 (GeneID 388532) — mean z-score = -3.94; z-score, replicate A = -3.96; z-score, replicate B = -4.08; z-score, replicate C = -3.8
CCDC22 (GeneID 28952) — mean z-score = 0.19; z-score, replicate A = 0.14; z-score, replicate B = 0.32; z-score, replicate C = 0.1
ATG2B (GeneID 55102) — mean z-score = 0.39; z-score, replicate A = 0.34; z-score, replicate B = 0.67; z-score, replicate C = 0.16
CTDSPL (GeneID 10217) — mean z-score = 0.95; z-score, replicate A = 0.99; z-score, replicate B = 0.99; z-score, replicate C = 0.87
MGST3 (GeneID 4259) — mean z-score = -0.9; z-score, replicate A = -0.94; z-score, replicate B = -0.81; z-score, replicate C = -0.95
LOC220998 (retired record) (GeneID 220998) — mean z-score = -0.29; z-score, replicate A = -0.21; z-score, replicate B = -0.46; z-score, replicate C = -0.21

Targets listed so far whose gene name starts with L or l (2):
LOC400782 (retired record) (GeneID 400782) — mean z-score = 1.09; z-score, replicate A = 1.12; z-score, replicate B = 1.23; z-score, replicate C = 0.91
LOC220998 (retired record) (GeneID 220998) — mean z-score = -0.29; z-score, replicate A = -0.21; z-score, replicate B = -0.46; z-score, replicate C = -0.21
